Measurements from patent US20210363204A1.

B1: NV1G1707 (peptide)
peptide: GPQCQKWMQTCDRERKCCEGFVCTLWCRKKLWAPAPAPAPAPYGRKKRRQRRR
modifications: not checked
B2: NV1G1969 (peptide)
peptide: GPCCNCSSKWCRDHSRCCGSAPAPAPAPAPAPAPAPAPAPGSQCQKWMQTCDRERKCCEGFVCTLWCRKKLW
modifications: not checked
B3: NV1G1952 (peptide)
peptide: GPRRRRRRRRRRRAPAPAPAPAPQCQKWMQTCDRERKCCEGFVCTLWCRKKLW
modifications: not checked

biological target: human Nav1.6, Q9UQD0; assay: QPatch; settings: chains peptide; modification not given

Row | Binder | IC50 [nM]
1 | GPACQKWMQTCDRNRKCCEGFVCTLWCRKKLW [NV1D3541] | 1750
2 | GPRCQKWMQTCDAERKCCEGFVCRLWCKKKLW [NV1D2772] | 242
3 | GPQCQKWMQTCDAERKCCEGFVCRLWCKKKLW [NV1D2775] | 236
4 | GPQCQKWMQTCDRERKCCEGFVCTLWCRKKLW [NV1D3034-NH2] | 160
5 | GPQCQKWMQTCDRERKCCEGFVCTLWCRKKLW [NV1D3034] | 569
6 | GPSCQKWMQTCDAERKCCEGFVCRLWCKKKLW [NV1D2773] | 197
7 | GPYCQKWMQTCDANRKCCEGFSCRLWCKKKLW [NV1D3586-NH2] | 98.5
8 | GPQCQKWMQTCDRERKCCQGFVCTLWCRKKLW [NV1D3388] | 1200
9 | GPQCQKWMQTCDRNRKCCEGFVCTLWCRKKLW [NV1D3044] | 308
10 | QCQKWMQTCDAERKCCEGFSCTLWCKKKLW [(-GP) N-Ac-NV1D2974-NH2] | 476
11 | GPACQKWMQTCDANRKCCEGFSCRLWCKKKLW [NV1D3587] | 434
12 | GPQCQKWMQTCDRERKCCEGFVCTLWCRKKLW [NV1D3034-NH-methyl] | 563
13 | GPQCQKWMQTCDAERKCCEGFSCTLWCKKKLW [NV1D2974] | 618
14 | GPQCQKWMQTCDRTRKCCEGFVCTLWCRKKLW [NV1D3368] | 1470
15 | QCQKWMQTCDRERKCCEGFVCTLWCRKKLW [(-GP) N-Ac-NV1D3034-NH2] | 165
16 | GPQCQKWMQTCDRTRKCCEGFVCTLWCRKKLW [NV1D3368-NH2] | 862
17 | GPQCQKWMQTCDAERKCCEGFSCTLWCKKKLW [NV1D2974-NH2] | 219
18 | GPQCQKWMQTCDARRKCCEGFVCRLWCKKKLW [NV1D3006] | 124
19 | GPQCQKWMQTCDAERKCCEGFVCRLWCKKKLW [NV1D2775-NH2] | 61.4
20 | GPYCQKWMQTCDANRKCCEGFSCRLWCKKKLW [NV1D3586] | 895
21 | GPQCQKWMQSCDRERKCCEGFVCTLWCRKKLW [NV1D3359] | 486
22 | GPQCQKWMQTCDRERKCCEGFVCTLWCRKKLW [NV1D3034-NH-butyl] | 502

biological target: human Nav1.7, Q15858; assay: QPatch; settings: chains peptide; modification not given

Row | Binder | IC50 [nM]
23 | GPACQKWMQTCDRNRKCCEGFVCTLWCRKKLW [NV1D3541] | 26.9
24 | GPYCQKWMQTCDANRKCCEGFSCRLWCKKKLW [NV1D3586-NH2] | 1.5
25 | GPQCQKWMQTCDRNRKCCEGFVCTLWCRKKLW [NV1D3044] | 4.6
26 | GPACQKWMQTCDANRKCCEGFSCRLWCKKKLW [NV1D3587] | 12.7
27 | GPQCQKWMQTCDAERKCCEGFSCTLWCKKKLW [NV1D2974] | 7
28 | GPQCQKWMQTCDRTRKCCEGFVCTLWCRKKLW [NV1D3368] | 5.7
29 | QCQKWMQTCDRERKCCEGFVCTLWCRKKLW [(-GP) N-Ac-NV1D3034-NH2] | 2.5
30 | GPQCQKWMQTCDARRKCCEGFVCRLWCKKKLW [NV1D3006] | 3.3

biological target: human Nav1.4 (human), P35499; assay: cell-based or functional assay; settings: not given

Row | Binder | Nav1.4 IC50, QPatch [nM]
31 | GPYCQKWMWTCDSERKCCEGMVCRLWCKKKLY (modifications not checked) [NV1G2319] | 1700

biological target: human Nav1.7 (human), Q15858; assay: cell-based or functional assay; settings: not given

Row | Binder | Nav1.7 IC50, FLIPR Tetra membrane depolarization [nM] | hNav1.7 TETRA IC50 [nM] | hNav1.7 QPatch % blk at 10 nM [%] | hNav1.7 QPatch % blk at 30 nM [%] | hNav1.7 QPatch IC50 [nM]
32 | GPSPGARAFAPAPAQCQKWMQTCDRERKCCEGFVCTLWCRKKLW (modifications not checked) [NV1G1961] | 68 |  |  |  | 
33 | GPQCQEWMQTCDRERKCCKGFVCTLWCRKKLW (modifications not checked) [NV1G1846] | 68.6 |  |  |  | 
34 | GPQCQAWMQTCDRERKCCEGFVCTLWCRKKLW (modifications not checked) [NV1G1771] | 70.6 |  |  |  | 
35 | GPACQKWMQTCDRNRKCCEGFSCTLWCRKKLW (modifications not checked) [NV1G1867] | 76 |  |  |  | 
36 | GPQCQKWMQTCDRERKCCEGFVCTLWCRKKLD (modifications not checked) [NV1G1793] | 80.9 |  |  |  | 
37 | B1 | 84.9 |  |  |  | 
38 | GPSPGARAFAPAPAPAPAPQCQKWMQTCDRERKCCEGFVCTLWCRKKLW (modifications not checked) [NV1G1956] | 88.1 |  |  |  | 
39 | GPQCQEWMQTCDRERKCCRGFVCTLWCRKKLW (modifications not checked) [NV1G1843] | 95.9 |  |  |  | 
40 | GPYCQKWMQTCDAERKCCEGFSCTLWCKKKLW (modifications not checked) [NV1G1862] | 100 |  |  |  | 
41 | B2 | 100 |  |  |  | 
42 | GPQRFVTGHFGGLYPANGQCQKWMQTCDRERKCCEGFVCTLWCRKKLW (modifications not checked) [NV1G1980] | 101 |  |  |  | 
43 | GPQCQKWMQTCDRERKCCEGFVCTLWCRKSLW (modifications not checked) [NV1G1850] | 102 |  |  |  | 
44 | GPRRRRRRRRRRRQCQKWMQTCDRERKCCEGFVCTLWCRKKLW (modifications not checked) [NV1G1981] | 102 |  |  |  | 
45 | GPQCQKWMQTCDRERKCCERFVCTLWCRKKLW (modifications not checked) [NV1G1851] | 108 |  |  |  | 
46 | GPQCQKWMQTCDEERKCCEGFVCTLWCRKKLW (modifications not checked) [NV1G1922] | 108 |  |  |  | 
47 | GPQCQDWMQTCDRERKCCEGFVCTLWCRKKLW (modifications not checked) [NV1G1778] | 109 |  |  |  | 

Row | Binder | Nav1.7 IC50, FLIPR Tetra membrane depolarization [nM] | hNav1.7 TETRA IC50 [nM] | hNav1.7 QPatch % blk at 10 nM [%] | hNav1.7 QPatch % blk at 30 nM [%] | hNav1.7 QPatch IC50 [nM]
48 | GPQCQKWMQTCDRERKCCEGFVCTLWCRKKLWAPAPAPAPAPDGPWRKM (modifications not checked) [NV1G1693] | 116 |  |  |  | 
49 | B3 | 139 |  |  |  | 
50 | GPQCQKWMQTCDRERKCCEGFVCTLWCRKKLWAPAPAPAPAP (modifications not checked) [NV1G1699] | 169 |  |  |  | 
51 | GPQCQKWMQTCKRKEKCCEGFVCTLWCRKKLW (modifications not checked) [NV1G1844] | 180 |  |  |  | 
52 | GPYCQKWMWTCDSERKCCEGMVCRLWCKKKLG (modifications not checked) [NV1G2329] |  | 38 |  |  | 
53 | GPYCQKWMWTCDSERKCCEGMVCRLWCKKKLI (modifications not checked) [NV1G2129] |  |  | -6.5 |  | 
54 | GPYCQKWMWTCDSERKCCEGMVCRLWCKKKLV (modifications not checked) [NV1G2291] |  | 63.3 |  |  | 
55 | GPYCQKWMYTCDSERKCCEGMVCRLWCKKKLW (modifications not checked) [NV1G2156] |  | 90.5 |  |  | 
56 | GPYCQKWMETCDSERKCCEGMVCRLWCKKKLW (modifications not checked) [NV1G2082] |  | 90.8 |  |  | 
57 | YCQKWMQTCDSERFCCEGMVCRLWCKKKLL (modifications not checked) [64053340] |  |  | 26.8 |  | 
58 | GPYCQKWMQTCDSERFCCEGMVCRLWCKKKLL (modifications not checked) [64053236] |  |  | 28 |  | 
59 | GPYCQKWMQTCDIERKCCEGMVCRLWCKKKLL (modifications not checked) [64053223] |  |  | 33 |  | 
60 | GPYCQKWMQTCDSERKCCNGMVCRLWCKKKLL (modifications not checked) [64053210] |  |  | 41.7 |  | 
61 | GPYCQKWMWTCDSERKCCYGMVCRLWCKKKLW (modifications not checked) [NV1G2324] |  |  | 57.5 |  | 
62 | GPYCQKWMWTCDSERKCCIGMVCRLWCKKKLW (modifications not checked) [NV1G2094] |  |  |  | 63.2 | 
63 | GPYCQKWMWTCDSERKCCLGMVCRLWCKKKLW (modifications not checked) [NV1G1996] |  |  | 76.9 |  | 0.5
